Measured values taken from PMC4802734 (Cell Chemical Biology, 2016).

Experiments:
[1] = tested on: PrfA-regulated virulence genes in L. monocytogenes EGDe (PrfAWT); conditions: 100 μM; for expression of the hly gene: compared with the untreated control

| SMILES | generation time of L. monocytogenes (L. monocytogenes EGDe) [min] | expression of the hly gene [1] | expression of inlA and inlB ([1]; northern blot) | levels of the virulence genes hly, actA, and plcA transcripts ([1]; northern blot) |
| --- | --- | --- | --- | --- |
| O=C(O)[C@@H]1CSc2c(C3CC3)c(Cc3cnc4ccccc4c3)cc(=O)n21 [compound 3] | 43 | not affected | – | – |
| Cc1ccc(Cc2cc(=O)n3c(c2C2CC2)SC[C@H]3C(=O)O)c2ccccc12 [compound 2] | 50 | downregulated | unaffected | reduction |
